{"source": "PubChem BioAssay AID504761 (Drosophila RNAi Screening Center, 2011)", "test": "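Insect host genes that dengue virus relies on to spread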 (primary screen)", "cells": "D.Mel-2 cells from Drosophila", "reagents": "long dsRNA against Drosophila genes", "challenge": "infection with dengue virus type 2; dose and infection time not stated", "read-out": "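Cells stained for dengue envelope protein and imaged; percent of infected cells per well on duplicate plates, ranked by infection, with stained nuclei counted for cell number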", "reading the numbers": "infection score: higher = more virus-infected cells; cell count: higher = more cells in the well", "hit rule": "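Low infection ranks in the two replicates (chance level up to 0.065) followed by a retest with a 1.5-fold or larger significant decrease, p below 0.05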", "calls": "active = confirmed: knock-down lowers infection; inactive = not picked or not confirmed", "note": "In all, the deposit lists about 22,000 reagents; below is a random part of those that have a named target and a result. In the full data, 116 (0.52%) were called active. 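Calls depend on retest data that are not deposited; infection was ranked per plate without normalising between plates; the unit of the infection score is not given.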 The raw values are shown without normalisation. Entries without a mark were called inactive. Reagents against one gene are numbered here. Not all columns of the deposit are shown. Not stated in the record: the amount of reagent, the time to read-out."}
{"gene": "CG11123", "reagent": 1, "infection score, replicate 1": 12.7, "cell count, replicate 1": 6983}
{"gene": "CG11123", "reagent": 2, "infection score, replicate 1": 15.7, "cell count, replicate 1": 5742}
{"gene": "CG7781", "reagent": 1, "infection score, replicate 1": 14.4, "cell count, replicate 1": 5643}
{"gene": "Cyp12e1", "reagent": 1, "infection score, replicate 1": 13.6, "cell count, replicate 1": 5955}
{"gene": "CG6280", "reagent": 1, "infection score, replicate 1": 4.26, "cell count, replicate 1": 6823}

Reprinted from above (2 entries):
{"gene": "CG11123", "reagent": 2, "infection score, replicate 1": 15.7, "cell count, replicate 1": 5742}
{"gene": "CG7781", "reagent": 1, "infection score, replicate 1": 14.4, "cell count, replicate 1": 5643}

The list goes on:
{"gene": "CG32021 (retired record)", "reagent": 1, "infection score, replicate 1": 10.9, "cell count, replicate 1": 6633}
{"gene": "CG32021 (retired record)", "reagent": 2, "infection score, replicate 1": 6.6, "cell count, replicate 1": 5684}
{"gene": "CG2126", "reagent": 1, "cell count, replicate 1": 429}
{"gene": "CG13313", "reagent": 1, "infection score, replicate 1": 2.36, "cell count, replicate 1": 6065}
{"gene": "CG13313", "reagent": 2, "infection score, replicate 1": 16.1, "cell count, replicate 1": 4865}
{"gene": "CG13130 (retired record)", "reagent": 1, "infection score, replicate 1": 5.16, "cell count, replicate 1": 6417}
{"gene": "CG13130 (retired record)", "reagent": 2, "infection score, replicate 1": 6.14, "cell count, replicate 1": 6404}
{"gene": "CG17744", "reagent": 1, "infection score, replicate 1": 2.03, "cell count, replicate 1": 5975}
{"gene": "Vha100-2", "reagent": 1, "infection score, replicate 1": 8.45, "cell count, replicate 1": 5820}
{"gene": "Vha100-2", "reagent": 2, "infection score, replicate 1": 5.78, "cell count, replicate 1": 1073}
